Reference: patent US20260234738A1 (Regeneron, published 2026)
Positions count from the first letter of the chain named.

B1: mAb10998 (antibody, V domains shown)
VH: EVQLVESGGGLVHPGGSLRLSCAASGLTVSSNYMSWVRQAPGKGLEWVSVIYSGGSTYYADSVKGRFTISRHNSKNTLFLQMNSLRAEDTAVYYCARDRPITGTTLDVWGQGTTVTVSS
VL: DIQMTQSPSSLFASVGDRVTITCRASQSISSYLNWYQQKPGKAPKLLIYAASSLQSGVPSRFSGSGSGTDFTLTISSLQPEDFAFYYCQQTYSTPPITFGQGTRLEIKR
B2: mAb10985 (antibody, V domains shown)
VH: EVQLVESGGGLVQPGRSLRLSCAASGFTFDDYAMHWVRQAPGKGLEWVSGISWNRGSIGYADSVKGRFTISRDNAKNSLYLQMSSLRAEDTALYYCAKDGERWDSVVVPSARNGMDVWGQGTTVTVSS
VL: QSVLTQPPSVSGAPGQRVTISCTGSSSNIGAGYDVHWYQQLPGTAPKLLIYGNSNRPSGVPDRFSGSKSGTSASLAITGLQAEDEADYYCQSYDSSLSGSYVFGTGTKVTVLG
B3: mAb10998 (antibody, V domains shown)
VH: B1 VH
VL: B1 VL
B4: mAb11004 (antibody, V domains shown)
VH: QVQLVESGGGVVQPGRSLRLSCVASGFTFSIYGMDWVRQAPGKGLEWVAVISYDGSNKYYADSVKGRFTISRDNSKNTLYLQMNSLRPEDTAVYYCAKDREAAADAFDIWGQGTMVTVSS
VL: DIQMTQSPSSVSASVGDRVTITCRASQGISSWLAWYQQKPGKAPKLLIYAASSLHSGVPSRFSGSGSGTDFTLTISSLQPEDFATYYCQQANSFRLTFGGGTKVEIKR
B5: mAb11006 (antibody, V domains shown)
VH: EVQLVESGGGLVQPGGSLRLSCAASGFIVSRNYMSWVRQAPGKGLEWVSVIYSGGSTFYADSVKGRFTISRHNSKNTLYLQMNSLKAEDTAVYYCARELRGYFDYWGQGTLVTVSS
VL: DIQLTQSPSFLSASVGDRVTITCWASQGISSYLAWYQQKPGKAPKLLIYAASTLQSGVPSRFSGSGSGTEFTLTISSLQPEDFATYYCQLLNSYPYTFGQGTKLEIKR
B6: mAb11008 (antibody, V domains shown)
VH: EVQLVESGGGLVQPGGSLRLSCAASGFTVSSNYMTWVRQAPGKGLEWVSVIYSGGSTFYADSVKGRFTISRHNSENTLYLQMNSLRAEDTAVYYCARDLAAAGTDYWGQGALVTVSS
VL: B5 VL with E81D, L90H, P95L
B7: mAb10935 (antibody, V domains shown)
VH: EVQLVESGGGLVQPGGSLRLSCAASGFTVSSNYMSWVRQAPGKGLEWVSLIYSGGSTYYADSVKGRFTISRHNSKNTLYLQMNSLRSEDTAVYYCARVPLGDYYYGMDVWGQGTTVTVSS
VL: DIQMTQSPSSLSASVGDRVTITCQASQDINKYLNWYQQKPGKAPKLLIYDASNLETGVPSRFSGSGSGTDFTFTISSLQPEDIATYYCQQSDNLPLTFGGGTKVEIKR
B8: mAb10930 (antibody, V domains shown)
VH: EVQLVESGGGLVQPGRSLRLSCAASGFTFDDYAMYWVRQAPGKGLEWVSGISWNSGSIGYADSVKGRFTISRDNAKNSLYLQMNSLRAADTALYYCAKDKDWNSRGYYYYGMDVWGQGTTVTVSS
VL: not shown
B9: mAb11006 (antibody, V domains shown)
VH: B5 VH
VL: B5 VL

Target: SARS-COV-2 RBD-MMH (SARS-CoV-2)
Test: SPR

Binder	t½ [s]
B1	30
B2	480

Target: T1, SARS-CoV-2 Spike Protein (RBD)(R319-F541).mmH (SARS-CoV-2)
Test: Luminex beads, supernatant

Binder	Binding signal (MFI)
B3	3840
B4	11300
B5	4740
B6	3180

Target: SARS-COV-2 RBD extracellular domain expressed with a C-terminal myc-myc-hexahistidine (SARS-CoV-2)
Test: SPR

Binder	t½ [s]
B7	18
B8	36
B9	48

Target: T1, SARS-CoV-2 Spike Protein …
Test: Luminex beads, supernatant
Remark: another data set of the same source

Binder	Binding signal (MFI)
B3	1850
B4	3350
B5	5130
B6	4050
